In ChEMBL document CHEMBL1134771, “Synthesis and antimalarial activity of novel medium-sized 1,2,4,5-tetraoxacycloalkanes” (J Med Chem, 2001):

The compounds below were run on Plasmodium falciparum (assay: In vitro antimalarial activity for Plasmodium falciparum).
Type: functional, organism-based
Method in brief: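 Chloroquine-sensitive P. falciparum FCR-3 strain cultured in vitro; EC50 determined.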
`C1CCC(C2OOCCCOO2)CC1` showed an EC50 of 200 nM. `OOC1(OO)CCCCCCCCCCC1` gave an EC50 of 100000 nM. `C1CCCC2(CCC1)OOCCCOO2` was tested, and the EC50 was 200 nM. `CCCCC1(CCCC)OOCCCOO1` gave an EC50 of 280 nM. Work on `C1CCCC2(CC1)OOCCCOO2` yielded an EC50 of 200 nM.
